For series [1], the system named is L929 cell line. Briefly: MTT assay, acute toxic effect (24 h). The format is cell-based, mouse. The conditions noted are these: IC50 L929 1 day (acute toxic effect) / MIC M. tuberculosis H37Rv. (Tetrazolium dyes change colour on reduction, which living cells bring about.)
Series [2] concerns L929 cell line. Briefly: MTT assay, effect on proliferation (5 days). It is filed as cell-based, mouse. The conditions noted are these: IC50 L929 5 days / MIC M. tuberculosis H37Rv.

Experimental findings from patent EP2829536A1, “4-Nitro-5-dichloromethylpyrazol derivatives for the treatment of infectious diseases” (priority 2013, dated 2015) are described below.

Take `CNCCOc1nn(-c2c(Cl)cc(Cl)cc2Cl)c(C(Cl)Cl)c1[N+](=O)[O-].Cl` [LX079, 2-((5-(Dichloromethyl)-4-nitro-1-(2,4,6-trichlorophenyl)-1H-pyrazol-3-yl)oxy)-N-methylethanaminium chloride]: the “SI (IC50/MIC)” value is given as 65.3 in the series on L929 cell line [1], 30.6 in the series on L929 cell line [1] (listed as vz0825), “exceeding 10” with L929 cell line [2] and 12.2 with L929 cell line [2] (listed as vz0825).
